Source: PubChem BioAssay AID1259414 (Drosophila RNAi Screening Center, 2018)
In all, the deposit lists about 24,000 reagents; this is an unselected part of those that have a named target and a result. Of all reagents, about 1,210 (5%) are marked active. 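Inactive calls also include excluded dsRNAs with several or no targets, genes unexpressed in JW18, and well A1, regardless of score.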 Entries without a mark were called inactive. No sequences are given here.

- Screen: 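Genome-wide screen for host control of endosymbiont load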 (primary screen)
- System: Drosophila JW18 cells infected with Wolbachia
- Reagents: long dsRNA against Drosophila genes, 0.25 µg dsRNA per well of a 384-well plate
- Duration: 5 days
- Treatment: cells persistently infected with Wolbachia before knock-down; no added drug
- Measurement: 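Automated imaging of bacterial rRNA staining divided by host cell count, reported as plate-normalised robust z-score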
- Reading the numbers: Wolbachia per cell robust z: higher = more Wolbachia per host cell than the plate typical
- Hit rule: 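Hit when robust z is 1.5 or more, or -1.5 or less, in at least two of three replicates; excludes dsRNAs with several or no targets, genes not expressed in JW18 and well A1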

gene	amplicon	Wolbachia per cell robust z, rep 1	Wolbachia per cell robust z, rep 2	Wolbachia per cell robust z, rep 3
CG16753	DRSC08489	-0.785	-1.44	-0.316
CheB53a (Chemosensory protein B 53a)	DRSC06625	-2.07	-0.502	0.656
CG4757	DRSC14130	0.183	-5.68	0.67
CG11151	DRSC19387	0.708	-0.481	1.26
CG17593	DRSC00504	-0.367	-4.58	-0.765
CG17593	DRSC27490	1.77	-0.317	-0.198
Tmem43 (Transmembrane protein 43)	DRSC10964	-0.659	-0.718	-1.22
Tmem43 (Transmembrane protein 43)	DRSC26177	-0.166	-0.846	-1.78
CG34430	DRSC06499	-2.54 (active)	-0.677	-5.05
Icmt (Isoprenylcysteine carboxyl methyltransferase)	DRSC09834	0.265	-0.061	0.578
CG15202	DRSC19649	0.637	0.969	-0.436
CG11041	DRSC06025	-3.42	-1.13	0.387
CG11041	DRSC29269	-5.13	-2.54	-1.12
CG34106	DRSC38910	-1.59	-6.7	0.798
Nep1 (Neprilysin 1)	DRSC18388	-0.458	-0.507	0.19
Nep1 (Neprilysin 1)	DRSC26208	1.15	-0.591	-0.0806
CG3534	DRSC15494	1.2	2.1	0.221
CG3534	DRSC26023	0.159	-0.0105	0.464
CG3534	DRSC41613	-0.0857	0.139	0.747
Pex2 (Peroxin 2)	DRSC10770	0.511	-8.69	0.619
lncRNA:CR34047 (long non-coding RNA:CR34047)	DRSC07857	0.0104	-6.16	-0.116
lncRNA:CR34047 (long non-coding RNA:CR34047)	DRSC21689	0.493	0.895	1.61
tbrd-3	DRSC04295	0.103	0.116	0.865
tbrd-3	DRSC26310	-1.55	0.301	0.601
CG15099	DRSC06528	0.741	-0.224	0.267
CG5937	DRSC18392	-0.0701	0.217	-1.17
CG5937	DRSC26696	0.0304	0.993	0.326
sa (spermatocyte arrest)	DRSC11649	-0.636	-0.0926	0.793
CG18417	DRSC10319	0.636	1.27	-0.541
CG18417	DRSC23997	-0.468	-0.288	-0.586
Fmo-2 (Flavin-containing monooxygenase 2)	DRSC04983	0.236	-0.293	0.447
Sarm (Sterile alpha and Armadillo motif)	DRSC08906	-0.141	-0.975	0.222
Sarm (Sterile alpha and Armadillo motif)	DRSC08907	-0.0168	0.27	0.23
Sarm (Sterile alpha and Armadillo motif)	DRSC10038	-0.616	-1.21	-0.354
Sarm (Sterile alpha and Armadillo motif)	DRSC10039	-2.92	-1.14	0.761
Sarm (Sterile alpha and Armadillo motif)	DRSC10927	0.26	-1.23	0.196
Sarm (Sterile alpha and Armadillo motif)	DRSC10929	0.316	-1.29	-0.98
Sarm (Sterile alpha and Armadillo motif)	DRSC27924	1.13	0.0675	0.245
CCHa2 (CCHamide-2)	DRSC14835	0.351	0.138	0.0758
CG34451	DRSC38840	-1.21	0.6	0.365
CG34300	DRSC38807	-0.678	0.549	-0.0765
CG4666	DRSC18379	-3.09	0.824	0.529
Drl-2 (Derailed 2)	DRSC05393	0.943	1.39	1.28
Drl-2 (Derailed 2)	DRSC06155	0.57	1.18	0.643
Drl-2 (Derailed 2)	DRSC06858	0.286	0.973	0.231
Osi6 (Osiris 6)	DRSC12128	-1.22	-2.66	-0.141
Osi6 (Osiris 6)	DRSC25935	0.174	0.357	0.721

Not a retest: an excerpt of the list.
gene	amplicon	Wolbachia per cell robust z, rep 1	Wolbachia per cell robust z, rep 2	Wolbachia per cell robust z, rep 3
CG16753	DRSC08489	-0.785	-1.44	-0.316
CheB53a (Chemosensory protein B 53a)	DRSC06625	-2.07	-0.502	0.656
CG4757	DRSC14130	0.183	-5.68	0.67
CG11151	DRSC19387	0.708	-0.481	1.26
CG17593	DRSC00504	-0.367	-4.58	-0.765
CG17593	DRSC27490	1.77	-0.317	-0.198
Tmem43 (Transmembrane protein 43)	DRSC10964	-0.659	-0.718	-1.22
Tmem43 (Transmembrane protein 43)	DRSC26177	-0.166	-0.846	-1.78
